Measured values: article PMC12144419, “Early preclinical development of Mycobacteriumtuberculosis amino acid biosynthesis pathway inhibitor DRILS-1398 as a potential anti-TB drug” (iScience, 2025)
Where two headings read alike, the source gives them in different places.

By UniProt entry, the sequences of proteins in these tests, tags left out. Where a name states a change or a piece, a line headed by the entry shows the natural chain unless it says otherwise.
UniProt Q12809: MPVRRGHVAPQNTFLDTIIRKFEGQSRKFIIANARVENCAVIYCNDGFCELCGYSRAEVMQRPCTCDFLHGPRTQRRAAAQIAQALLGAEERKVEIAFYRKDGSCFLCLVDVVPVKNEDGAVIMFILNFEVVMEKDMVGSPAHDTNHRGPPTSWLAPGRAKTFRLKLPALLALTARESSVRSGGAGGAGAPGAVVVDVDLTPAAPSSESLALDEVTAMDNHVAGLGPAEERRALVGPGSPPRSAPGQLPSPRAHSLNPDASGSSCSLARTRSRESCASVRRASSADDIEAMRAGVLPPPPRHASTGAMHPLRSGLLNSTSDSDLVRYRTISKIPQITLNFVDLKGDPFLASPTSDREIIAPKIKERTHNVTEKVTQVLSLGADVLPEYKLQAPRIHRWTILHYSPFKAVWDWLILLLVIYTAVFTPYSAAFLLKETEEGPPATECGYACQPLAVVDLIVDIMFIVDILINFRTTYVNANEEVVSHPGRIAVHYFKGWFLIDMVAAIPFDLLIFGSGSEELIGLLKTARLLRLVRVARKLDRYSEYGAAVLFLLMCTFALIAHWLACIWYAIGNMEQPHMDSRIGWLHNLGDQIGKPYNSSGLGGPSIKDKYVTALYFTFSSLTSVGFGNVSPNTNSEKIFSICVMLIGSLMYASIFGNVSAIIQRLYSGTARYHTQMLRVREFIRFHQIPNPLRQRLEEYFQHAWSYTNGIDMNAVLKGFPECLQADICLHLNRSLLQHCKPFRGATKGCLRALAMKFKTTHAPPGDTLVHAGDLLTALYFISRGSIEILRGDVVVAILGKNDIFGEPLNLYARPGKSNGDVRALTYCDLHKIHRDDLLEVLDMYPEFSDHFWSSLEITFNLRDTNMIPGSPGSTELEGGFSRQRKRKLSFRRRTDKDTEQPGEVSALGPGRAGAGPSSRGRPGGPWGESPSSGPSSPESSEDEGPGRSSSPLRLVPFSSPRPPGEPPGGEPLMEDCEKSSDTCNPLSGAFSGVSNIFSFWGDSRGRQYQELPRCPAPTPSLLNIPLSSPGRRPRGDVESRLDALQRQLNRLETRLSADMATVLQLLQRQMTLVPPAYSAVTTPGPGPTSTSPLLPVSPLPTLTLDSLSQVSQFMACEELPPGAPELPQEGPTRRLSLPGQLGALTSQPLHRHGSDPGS

Tests used:
hERG channel (IKr) [1] = molecular target: T1, hERG channel (IKr) (Homo sapiens, UniProt Q12809)
hERG channel (IKr) [2] = molecular target: T1, hERG channel (IKr); experiment: cell-based
hERG channel (IKr) [3] = molecular target: T1, hERG channel (IKr); remark: listed apart in the source

## CCCc1nn(C)c2c(-c3c[nH]c4ccc(Cl)cc34)nc(-c3ccc(Cl)cc3)nc12 [DRILS-1398]
hERG channel (IKr) [1]; 0.1 μM
  Inhibition of hERG current vs vehicle control: 18.59%
hERG channel (IKr) [1]; 0.3 μM
  Inhibition of hERG current vs vehicle control: 32.32%
hERG channel (IKr) [1]; 1 μM
  Inhibition of hERG current vs vehicle control: 32.98%
hERG channel (IKr) [1]; 3 μM
  Inhibition of hERG current vs vehicle control: 39.09%
hERG channel (IKr) [1]; 10 μM
  Inhibition of hERG current vs vehicle control: 47.89%
hERG channel (IKr) [1]; 30 μM
  Inhibition of hERG current vs vehicle control: 60.18%
hERG channel (IKr) [2]
  IC50: 10.2 µM
hERG channel (IKr) [3]
  hERG (IKr) inhibition, verdict: moderate inhibitor
